# From the supplement of paper PMC12350171
# This list holds what a sample rich in hits left over.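 The calls were made as follows: active = normalised median growth AUC below 0.1 of DMSO control; inactive = AUC 0.1 or higher.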
# Tested on: S. enterica typhimurium tolC KO
# Assay: growth AUC normalised to DMSO control (median) (fraction of control); higher = less growth inhibition, active = hit call of the paper
# Details: 20 µM
# Outline: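 Anaerobic growth was tracked hourly at OD578 for 24 h in 96-well plates of mGAM seeded at OD578 0.01 with each approved-drug library compound at 20 μM and 1% DMSO. Strains had first been passaged twice overnight without oxygen. Three biological replicates were run. The reported median is the area under the curve, calculated by the trapezoidal rule on curves truncated at entry into stationary phase and normalised to vehicle wells on the same plate.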
# 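Also: active when median AUC fell below 0.1.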
compound,measurement,value
COc1cc(Br)c(C[N+]2(CCOCCC3CCC4CC3C4(C)C)CCOCC2)cc1OC (stereo unspecified) [Pinaverium bromide],growth AUC normalised to DMSO control,inactive: 0.573
